System: RSV (Group A, Long Strain)
Assay: Antiviral (RSV) assay: cytopathetic effect (CPE) protection assay in HEp-2 cells, MTT readout
Type: cell-based, human respiratory syncytial virus (RSV)
Settings: Table 2; therapeutic window, ratio of MTT TD50 to RSV EC50
Method: HEp-2 cells and RSV (Group A, Long Strain) were obtained from the American Type Culture Collection (Manassas, Va.). A cytopathetic effect (CPE) protection assay was performed to determine the ability of a compound to protect the cells from viral infection and thus the CPE induced by viral infection. 96-well plates were first seeded with 3×10^3 HEp-2 cells per well in Dulbecco's modified Eagle's medium (DMEM) containing 10% fetal bovine serum (FBS). One day after the cells were seeded, they were preincubated with serial dilutions of compounds prepared in 100 μL assay medium (DMEM mixed with F12 medium at a 1:1 ratio, supplemented with 2% FBS and 1 mM sodium pyruvate) for 1 hour at 37° C. 100 μL of assay medium containing 0.2 multiplicity of infection (MOI) of RSV was then added to each well of cells. In addition to wells containing infected cells incubated with compounds, each plate also contained replicates of two kinds of controls: (1) Virus control contained cells infected with 0.2 MOI of RSV in assay medium, (2) Uninfected cell control contained cells incubated with assay medium only. After 4 days of incubation at 37° C., the viability of cells was assessed using MTT (Thiazolyl blue tetrazolium bromide, Sigma). A stock solution of MTT, at a concentration of 4 mg/mL in phosphate-buffered saline, was added to all wells at 25 μL per well. Plates were further incubated for 4 hours, and each well was then treated with 50 μL of a solution containing 20% sodium dodecyl sulfate (SDS) and 0.02 N HCl. After an overnight incubation, the plates were measured on a BioTek® microtiter plate reader at wavelengths of 570 nm and 650 nm. The MTT detection is based on the fact that viable (uninfected) cells can reduce the tetrazolium salts into colored formazan products, which can then be quantitated by spectrometry. […] Compounds were tested to determine both their antiviral and toxicity to determine their therapeutic window. Determination of the EC50 and TD50 of these active compounds were repeated one additional time to confirm the window.

SMILES | Window (TD50/EC50)
Cc1cc(NC2CCCCC2)nc(NCc2ccccn2)n1 [Example 4, N^4-cyclohexyl-6-methyl-N^2-(pyridin-2-ylmethyl)pyrimidine-2,4-diamine] | 1.6
Cc1cc(NC2CCCCCC2)nc(NCc2ccccn2)n1 [Example 3, N^4-cycloheptyl-6-methyl-N^2-(pyridin-2-ylmethyl)pyrimidine-2,4-diamine] | 3
Cc1ccccc1CNc1nc(NCc2ccccn2)nc2c1CCC2 [Example 2, N^4-(2-methylbenzyl)-N^2-(pyridin-2-ylmethyl)-6,7-dihydro-5H-cyclopenta[d]pyrimidine-2,4-diamine] | 3
Cc1nc(NCc2ccccn2)nc(NC2CCCCC2)c1C [Example 1, N^4-cyclohexyl-5,6-dimethyl-N^2-(pyridin-2-ylmethyl)pyrimidine-2,4-diamine] | 153
